Literature values in publication PMC9264115, “Pd-catalyzed C–C and C–N cross-coupling reactions in 2-aminothieno[3,2-d]pyrimidin-4(3H)-one series for antiplasmodial pharmacomodulation” (RSC Advances, 2022).

System: K1 culture-adapted P. falciparum strain
Set-up: method as in PMID 25791675
Conditions: from CC50 HepG2 and EC50 PfK1; reference values; ratio CC50 / EC50; cited from earlier work

| Compound | SI (selectivity index) |
| --- | --- |
| O=C1C(O)=C([C@H]2CC[C@H](c3ccc(Cl)cc3)CC2)C(=O)c2ccccc21 [Atovaquone, atovaquone] | >12 000 |
| C[C@H]1c2cccc(O)c2C(=O)C2=C(O)[C@]3(O)C(=O)C(C(N)=O)=C(O)[C@@H](N(C)C)[C@@H]3[C@@H](O)[C@@H]21 [Doxycycline, doxycycline] | 4 |
| Cc1ccc(-c2cc3nc(NC(C)(C)C)[nH]c(=O)c3s2)cc1 [Compound M1, gamhepathiopine] | 533 |
| Cc1ccc(-c2cc3nc(NC(C)(C)C)[nH]c(=O)c3s2)cc1 [M1 (free base), gamhepathiopine] | 128 |
